Anti-infective test results gathered from many reports (values: NIAID ChemDB through PubChem).

Shared fields: target-level tests

Conditions beyond the fields shown may differ between rows.

{"smiles": "NC(N)=NCCC[C@@H]1NC(=O)[C@H](CCCN=C(N)N)NC(=O)[C@@H](Cc2ccccc2)NC(=O)CNC(=O)[C@H](Cc2ccc3ccccc3c2)NC1=O", "target": "CXCR4", "read by": "radiometric", "read-out": "IC50", "result": "0.051 µM"}
{"smiles": "CN1Cc2c(c3c4ccccc4n(C)c3c3c2c2ccccc2n3CCC#N)C1=O", "target": "cAMP-dependent protein kinase", "read-out": "IC50", "result": ">30 µM"}
{"smiles": "O=C(O)[C@@H](C1CCCCC1)N1C[C@H](CN2CCC(O)(CCCc3ccccc3)CC2)[C@@H](c2ccccc2)C1", "target": "L-type Ca2+ channel", "read-out": "IC50", "result": ">10 µM"}
{"smiles": "NC(N)=NCCC[C@H](N)C(=O)NC[C@@H]1O[C@H](O[C@H]2[C@@H](O)[C@H](O[C@@H]3[C@@H](O)[C@H](N)C[C@H](N)[C@H]3O[C@H]3O[C@H](CO)[C@@H](O)[C@H](O)[C@H]3N)O[C@@H]2CO)[C@H](N)[C@@H](O)[C@@H]1O", "target": "CXCR4", "read by": "flow cytometry", "read-out": "IC50", "result": ">10 µM"}
{"smiles": "NC(N)=NCCC[C@@H]1NC(=O)CNC(=O)[C@H](Cc2ccc3ccccc3c2)NC(=O)[C@H](CCCN=C(N)N)NC(=O)[C@@H](Cc2ccc(F)cc2)NC1=O", "target": "CXCR4", "read by": "radiometric", "read-out": "IC50", "result": "0.035 µM"}
{"smiles": "NC(N)=NCCC[C@H](N)C(=O)NC[C@H]1O[C@H](O[C@H]2[C@H](O)[C@@H](O)[C@H](NC(=O)[C@@H](N)CCCN=C(N)N)C[C@@H]2NC(=O)[C@@H](N)CCCN=C(N)N)[C@H](NC(=O)[C@@H](N)CCCN=C(N)N)[C@@H](O)[C@@H]1O", "target": "CXCR4", "read by": "flow cytometry", "read-out": "inhibition", "tested at": "10 µM", "result": "60%"}
{"smiles": "NC(N)=NCCC[C@@H]1NC(=O)[C@H](CCCN=C(N)N)NC(=O)[C@H]2Cc3ccc(O)cc3CN2C(=O)CNC(=O)[C@H](Cc2ccc3ccccc3c2)NC1=O", "target": "CXCR4", "read by": "radiometric", "read-out": "IC50", "result": "0.16 µM"}
{"smiles": "OC[C@H]1O[C@@H](n2cnc3cc(Cl)c(Cl)cc32)[C@H](O)[C@@H]1O", "target": "Protein kinase A", "read-out": "IC50", "result": ">30 µM"}
{"smiles": "CN1CC[C@H](c2c(O)cc(O)c3c(=O)cc(-c4ccccc4F)oc23)[C@H](O)C1", "target": "Cyclin-dependent kinase 9", "read by": "kinase activity", "read-out": "IC50", "result": "0.002 µM"}
{"smiles": "NC(N)=NCCC[C@H](N)C(=O)NC[C@@H]1OC(O[C@H]2[C@@H](O)[C@H](O[C@@H]3[C@@H](O)[C@H](NC(=O)[C@@H](N)CCCN=C(N)N)C[C@H](NC(=O)[C@@H](N)CCCN=C(N)N)[C@H]3O[C@H]3O[C@H](CO)[C@@H](O)[C@H](O)[C@H]3NC(=O)[C@@H](N)CCCN=C(N)N)O[C@@H]2CO)[C@H](NC(=O)[C@@H](N)CCCN=C(N)N)[C@@H](O)[C@@H]1O", "target": "CXCR4", "read by": "flow cytometry", "read-out": "IC50", "result": "<10 µM"}
{"smiles": "CN(CC(C)(CCN1CCC(N(CCO)C(=O)OCc2ccc([N+](=O)[O-])cc2)CC1)c1ccsc1)S(=O)(=O)c1ccccc1", "changes": "CCR5-Y37A", "target": "CCR5", "read by": "radiometric", "read-out": "fold resistance", "result": "1.65"}
{"smiles": "CN1C(=O)C(c2cc(Cl)c(O)c(Cl)c2)NC(=O)[C@@H]2NC(=O)C(c3cc(Cl)c(O)c(Cl)c3)NC(=O)[C@H](NC(=O)C(=O)c3cc(Cl)c(O)c(Cl)c3)Cc3c[nH]c4c(cccc34)-c3cc2cc(c3O)Oc2ccc(cc2)CC1C(=O)NC(C(=O)O)c1ccc(O)cc1", "target": "gp120", "read by": "ELISA", "read-out": "inhibition", "tested at": "10 µg/mL", "result": "100%"}
{"smiles": "COc1ccc2c(c1)c1c3c(c4c5ccccc5n(C)c4c1n2CCC#N)C(=O)NC3=O", "target": "Protein kinase C", "read-out": "IC50", "result": "0.0015 µM"}
{"smiles": "CC1CNCCN1S(=O)(=O)c1cccc2cnccc12", "target": "Protein kinase C", "read-out": "IC50", "result": "1 µM"}
{"smiles": "O=C(c1ccccc1)N1C[C@H](CN2CCC(c3ccccc3)CC2)[C@@H](c2ccccc2)C1", "changes": "CCR5-D276A", "target": "CCR5", "read by": "radiometric", "read-out": "fold resistance", "result": "1.6"}
{"smiles": "Cc1cc(SC2=C(O)C[C@@](CCc3ccc(O)cc3)(C(C)C)OC2=O)c(C(C)(C)C)cc1CO", "target": "Cytochrome P450 2D6", "read-out": "inhibition", "tested at": "100 µM", "result": "33%"}
{"smiles": "O=C(O[C@@H]1Cc2c(O)cc(O)cc2O[C@@H]1c1cc(O)c(O)c(O)c1)c1cc(O)c(O)c(O)c1", "target": "CD4", "read by": "ELISA", "read-out": "IC50", "result": "<50 µM"}
{"smiles": "NC(N)=NCCNS(=O)(=O)c1cccc2cnccc12", "target": "Protein kinase A", "read-out": "IC50", "result": "2 µM"}
{"smiles": "O=Nc1c(-c2c(O)[nH]c3ccccc23)[nH]c2ccccc12", "target": "Cyclin-dependent kinase 7", "read by": "radiometric", "read-out": "IC50", "result": ">4 µM"}
{"smiles": "NC[C@H]1O[C@H](O[C@H]2[C@H](O)[C@@H](O)[C@H](N)C[C@@H]2N)[C@H](N)[C@@H](O)[C@@H]1O", "target": "CXCR4", "read by": "flow cytometry", "read-out": "inhibition", "tested at": "20 µM", "result": "0%"}
{"smiles": "O=C1NCc2c1c1c3ccccc3[nH]c1c1[nH]c3ccccc3c21", "target": "cAMP-dependent protein kinase", "read-out": "IC50", "result": "36 µM"}
{"smiles": "CCCCCCCCCCCCCCCCOC[C@H](CCl)OP(=O)(O)OCC[N+](C)(C)C", "target": "Protein kinase C", "read-out": "inhibition", "tested at": "19 µM", "result": "86%"}
{"smiles": "Cc1nc2cc(Cl)c(Cl)cc2n1[C@@H]1O[C@H](CO)[C@@H](O)[C@H]1O", "target": "Protein kinase A", "read-out": "IC50", "result": ">30 µM"}
{"smiles": "N#CCCn1c2ccc(O)cc2c2c3c(c4c5cc(O)ccc5[nH]c4c21)C(=O)NC3", "target": "cAMP-dependent protein kinase", "read-out": "IC50", "result": "0.48 µM"}
{"smiles": "CC(C)C(=O)N1C[C@H](CN2CCC(c3ccccc3)CC2)[C@@H](c2ccccc2)C1", "changes": "CCR5-Y108A", "target": "CCR5", "read by": "radiometric", "read-out": "fold resistance", "result": "26.7"}
{"smiles": "NC(N)=NCCC[C@@H]1NC(=O)[C@H](Cc2ccc(F)cc2)NC(=O)[C@@H](CCCN=C(N)N)NC(=O)CNC(=O)[C@H](Cc2ccc3ccccc3c2)NC1=O", "target": "CXCR4", "read by": "radiometric", "read-out": "IC50", "result": "0.088 µM"}

3 of the rows above, restated:

| smiles | changes | target | read by | read-out | tested at | result |
|---|---|---|---|---|---|---|
| NC(N)=NCCC[C@H](N)C(=O)NC[C@@H]1OC(O[C@H]2[C@@H](O)[C@H](O[C@@H]3[C@@H](O)[C@H](NC(=O)[C@@H](N)CCCN=C(N)N)C[C@H](NC(=O)[C@@H](N)CCCN=C(N)N)[C@H]3O[C@H]3O[C@H](CO)[C@@H](O)[C@H](O)[C@H]3NC(=O)[C@@H](N)CCCN=C(N)N)O[C@@H]2CO)[C@H](NC(=O)[C@@H](N)CCCN=C(N)N)[C@@H](O)[C@@H]1O | - | CXCR4 | flow cytometry | IC50 | - | <10 µM |
| CN1C(=O)C(c2cc(Cl)c(O)c(Cl)c2)NC(=O)[C@@H]2NC(=O)C(c3cc(Cl)c(O)c(Cl)c3)NC(=O)[C@H](NC(=O)C(=O)c3cc(Cl)c(O)c(Cl)c3)Cc3c[nH]c4c(cccc34)-c3cc2cc(c3O)Oc2ccc(cc2)CC1C(=O)NC(C(=O)O)c1ccc(O)cc1 | - | gp120 | ELISA | inhibition | 10 µg/mL | 100% |
| OC[C@H]1O[C@@H](n2cnc3cc(Cl)c(Cl)cc32)[C@H](O)[C@@H]1O | - | Protein kinase A | - | IC50 | - | >30 µM |

An empty or dashed field is not shown. Fold resistance: result on the changed form divided by that on wild type. Inhibition is in % at the dose shown (toxicity tests: loss of growth or viability). ICn is the concentration giving n% inhibition.